From ChEMBL document CHEMBL5149972, “Novel Antimalarial Tetrazoles and Amides Active against the Hemoglobin Degradation Pathway in Plasmodium falciparum” (J Med Chem, 2021) come the findings set out here.

This assay relates to Plasmodium falciparum. Nature of the assay: Antiplasmodial activity against lab-derived KAF156 resistant Plasmodium falciparum Dd2-Pfcarl mutant infected in human RBC assessed as parasite growth inhibition incubated for 72 hrs by SYBR Green dye based fluorescence assay. To be noted: Erythrocyte. The class given is functional, organism-based.

`Cc1ccccc1-n1nnnc1C(c1cncnc1)N(Cc1cccc(C(F)(F)F)c1)C1CC1` (racemic): the EC50 (commonly the concentration needed to bring the measured effect to its halfway point) turned out to be 2000 nM.
